These are literature values, as cited in paper PMC6985722 (Antimicrobial Agents and Chemotherapy, 2020).

In this data set the test system is RSV. Particulars: virus challenge study, 17 treated subjects; cited from earlier work.

For the molecule `CC(C)C(=O)OC[C@@]1(CCl)O[C@@H](n2ccc(N)nc2=O)[C@H](F)[C@@H]1OC(=O)C(C)C` [ALS-008176], the “Mutations associated with in vitro resistance” value is reported as “no mutations known to be associated with in vitro resistance to ALS-008176 were detected”.
